Experimental data taken from US7235263B2, “Processes for controlling microbial organic compound production” (Kimberly-Clark Worldwide, Inc., priority 2001, dated 2007).

Experiment: Ammonia content of urine:TSB mixture without bacteria (ammonia probe)
Conditions: no bacteria

Compound | Ammonia Produced (n = 3) (Table 7, 10% mannitol (w/v) in urine:TSB) [ppm] | Ammonia Produced (n = 3) (Table 3, 5% (w/v) mannitol peroxide in urine:TSB) [ppm] | Ammonia Produced (n = 3) (Table 3, 10% mannitol peroxide in urine:TSB) [ppm]
OC[C@@H](O)[C@@H](O)[C@H](O)[C@H](O)CO [Mannitol, mannitol, reference compound] | 42.6 ± 0.1 |  | 
mannitol peroxide |  | 12.3 ± 0.5 | 13.2 ± 0.9
